Share of PSTVd loop 6 variants by leaf site

The pool varies loop 6 of the PSTVd intermediate strain in the pattern UNNNCGNNNG; wild type is UGACCGCGAG (upper and lower strand joined, each 5' to 3', the first 5 letters being the upper strand, closing pairs included).

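Three N. benthamiana plants were inoculated with the whole mutant pool. Samples came from the inoculated region at 5 days, the leaf margin at 10 and upper systemic leaves at 12.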

Numbers give reads per thousand; 0 = not seen among the reads, higher = more abundant.
Each value is the mean of three plants.
"Pool" is the share in the plasmid pool used as inoculum, on the same scale.
The inoculated region was read from the minus strand, the other sites from the plus strand.
For reference, wild type rose from 20.7 per thousand in the pool to 195, 198, 203 (inoculated region), 629, 591, 734 (leaf margin) and 942, 870, 868 (systemic leaves).

sequence	pool	inoculated region	leaf margin	systemic leaves
UUGGCGGAAG	0.183	0.121	0.0169	0
UAGCCGUUUG	0.445	0.0900	0.0445	0
UCAGCGUACG	0.288	0.0596	0.00920	0
UGCACGGGCG	0.196	0.0824	0	0
UCACCGAAAG	0.222	0.571	0.110	0
UUUUCGCCUG	0.196	0.0597	0.00920	0
UGCACGAUCG	0.157	0.0785	0	0
GGACCGGACG	0.0131	0.0118	0.00773	0
UUAACGCGAG	0.301	0.244	0.163	0.0885
UCUGCGCAAG	0.183	0.143	0	0
UAGCCGCUAG	0.131	0.0659	0.00773	0
UCGCCGUAGG	0.144	0.0938	0.0232	0
UUGCCGCCCG	0.288	0.101	0.0161	0
UCCACGAAUG	0.222	0.0958	0	0
UCUCCGCACG	0.248	0.0773	0	0
UCACCGAGUG	0.235	0.0900	0.0169	0
UUAUCUACGG	0.0131	0	0	0
UCGACGAGGG	0.248	0.0537	0	0
UCCGCGAUGG	0.314	0.125	0.00920	0
UGCUCGGAAU	0.0131	0	0	0
UCAGCGCAGG	0.183	0.102	0	0
UUUCCGUAUG	0.327	0.119	0.126	0
UCCGCGUGAG	0.196	0.121	0.0184	0
UGCCCGAAAG	0.183	0.625	0.0846	0
UGCACGAUUG	0.327	0.0540	0.00920	0
UGGACGGUUG	0.183	0.0896	0	0
UGUGCGUAAG	0.235	0.0770	0	0
UGAGCGCAAG	0.0654	0.751	0.144	0
UUAACGAGGG	0.170	0.0661	0	0
UUGGCGGGGA	0.0261	0	0	0
UUCCCGAGCG	0.248	0.0721	0	0
UUAUCGCACG	0.288	0.0967	0.0673	0.0137
UACCCGCUAG	0.0915	0.674	0.130	0
UUUCCGUGAG	0.196	0.132	0.0387	0
UACUCGAACG	0.170	0.0715	0	0
UGAGCGAAGG	0.0915	0.0898	0.00773	0
UAAGCGACUG	0.471	0.0768	0	0
UUCUCGGCAG	0.183	0.0717	0.00920	0
UCCACGCAAG	0.118	0.748	0.0471	0
UCAACGUUCG	0.131	0.113	0	0
UUAGCGACCG	0.183	0.125	0.00920	0
UGCGCGAGGG	0.170	0.144	0	0

Extract of 5 entries:

UGCACGAUUG (pool 0.327) read inoculated region 0.0540; leaf margin 0.00920; systemic leaves 0.
UCUGCGCAAG (pool 0.183) read inoculated region 0.143; leaf margin 0; systemic leaves 0.
UCCACGCAAG (pool 0.118) read inoculated region 0.748; leaf margin 0.0471; systemic leaves 0.
UGGACGGUUG (pool 0.183) read inoculated region 0.0896; leaf margin 0; systemic leaves 0.
UAGCCGCUAG (pool 0.131) read inoculated region 0.0659; leaf margin 0.00773; systemic leaves 0.

Sequences that differ at fixed positions probably stem from PCR or sequencing errors, and defective variants can be carried along by functional ones.
Samples held 36,220 to 57,551 reads, so the smallest values rest on one or two reads.

Source: Wu et al. 2024 (doi:10.1371/journal.ppat.1012142), supplementary data.